{"source": "paper PMC7263513", "about": "(bioRxiv, 2020)", "binders": {"B1": {"name": "C127 (antibody, V domains shown)", "VH": "QVQLVQSGAEVKKPGASVKVSCKASGYTFTGYYMHWVRQAPGQGLEWMGWINPNSGGTNYAQKFQGRVTMTRDTSISTAYMELSRLRSDDTAVYYCATAHPRRIQGVFFLGPGVWGQGTTVTVSS", "VL": "not shown"}}, "biological_target": "SARS-CoV-2 receptor binding domain (RBD) (Severe acute respiratory syndrome …)", "assay": "cell-based or functional assay", "data": [{"binder": "B1", "values": [{"measurement": "IC50 of neutralisation of SARS-CoV-2 pseudovirus (293T_(ACE2) cells)", "result": 0.0687, "unit": "µg/mL"}]}]}
